From PubChem BioAssay AID588727 (Southern Research Specialized Biocontainment Screening …, 2011)
This is one part of the list. Potency and affinity values are given separately. The source made the active and inactive calls. The rule behind the calls is not given here.

Experiment: inhibitors of VEEV TC-83 cytopathic effect, confirmation, Vero cells (AID 588727)
Conditions: VEEV TC-83 cytopathic effect inhibition, at 20 µM; active compounds read high

| Compound | inhibition |
| --- | --- |
| CC1(CBr)Cn2c(nc3ccccc3c2=O)S1 (stereo not given) | inactive: 1.04% |
| CC(C)/C=N\N=C(\N)N[N+](=O)[O-] | inactive: 0.76% |
| CN(C(=O)Cc1ccc(Cl)c(Cl)c1)[C@@H]1CCCC[C@H]1N1CCCC1 | inactive: 0.59% |
| COc1ccccc1CNC(=O)COC(=O)C(O)(c1ccccc1)c1ccccc1 | inactive: 0.57% |
| CC(C)(C)C(=O)NC(Sc1ncccn1)C(Cl)(Cl)Cl (stereo not given) | inactive |
| O=P1(N(CCCl)CCCl)NCCC(C(F)(F)F)O1 (stereo not given) | inactive |
| Clc1n[nH]nc1-c1nn[nH][15n]1 | inactive: 1.09% |
| CCOP(=O)(Nc1ccc(C)cn1)OCC | inactive: 0.61% |
| CCOP(=O)(NC(=NC(C)c1ccccc1)NC(C)c1ccccc1)OCC (stereo not given) | inactive |
| O=P1(Nc2ccccn2)COc2ccccc2OC1 | inactive: 3.14% |
| CCC1=CC2Cc3nc4ccc(Cl)cc4c(N)c3C(C1)C2 (stereo not given) | inactive: 4.09% |
| O=[As](O)(c1cccs1)c1cccs1 | inactive |
| Cc1ccc(OCC(=O)OC2CN3CCC2CC3)cc1 (stereo not given) | inactive: 0.56% |
| O=P1(Nc2ccc(Br)cn2)COc2ccccc2OC1 | inactive |
| NS(=O)(=O)c1cccc(NC(=O)COC(=O)C(O)(c2ccccc2)c2ccccc2)c1 | inactive: 4.18% |
| Nc1cccc([As](=O)(O)c2ccccc2)c1 | inactive: 0.32% |
| O=P1(Nc2ncccn2)COc2ccccc2OC1 | inactive: 4.58% |
| CCCC1OP(=O)(Nc2ccccc2)OCC1CC (stereo not given) | inactive: 0.11% |
| O=C(/C=C/c1ccccc1)OC1CN2CCC1CC2 (stereo not given) | inactive: 1.98% |
| CN(C)C1(CNC(=O)c2ccc(S(C)(=O)=O)cc2)CCCCC1 | inactive: 1.35% |
| CC1CCC(C(C)C)C(OP(=O)(Nc2ccccn2)c2ccccc2)C1 (stereo not given) | inactive: 8.89% |
| Cc1ccc(C(=O)OC2CN3CCC2CC3)cc1 (stereo not given) | inactive: 0.05% |
| Cc1nn(-c2ccccc2)c2c1P(=O)(N1CCOCC1)N(C)C(c1ccccc1)=N2 (stereo not given) | inactive: 1.26% |
| CN(C(=O)Cc1ccc(Cl)c(Cl)c1)[C@H]1CC[C@@]2(CCCO2)C[C@@H]1N1CCCC1 | inactive: 3.39% |
| O=[N+]([O-])c1ccc2c(c1)nnn2O | inactive |
| CN(C)C(=O)c1cc([N+](=O)[O-])cc2c1-c1c(cc([N+](=O)[O-])cc1[N+](=O)[O-])C2=O | inactive |
| CN(C(=O)Cc1ccccc1)[C@@H]1CC[C@]2(CCCO2)C[C@H]1N1CCCC1 | inactive |

| Compound | inhibition |
| --- | --- |
| CCOP1(=S)c2c(C)nn(CCC#N)c2N=C(c2ccc(F)cc2)N1C (stereo not given) | inactive: 0.29% |
| N#CCCN(C(=O)COC(=O)C(O)(c1ccccc1)c1ccccc1)c1ccc(F)cc1 | inactive: 0.7% |
| NC(=O)Nc1ccc([As](=O)(O)O)cc1 | inactive: 0.97% |
| Nc1ccccc1[As](=O)(O)c1ccccc1 | inactive: 0.44% |
| O=C(O)COc1ccc([As](=O)(O)O)cc1[N+](=O)[O-] | inactive: 0.46% |
| CS(=O)(=O)c1cc([N+](=O)[O-])c2no[n+]([O-])c2c1 | inactive: 0.56% |
| O=P(Nc1nccs1)(Oc1ccccc1)Oc1ccccc1 | inactive: 0.58% |
| O=P(Nc1nccs1)(c1ccccc1)c1nc2ccccc2s1 (stereo not given) | inactive: 3.99% |
| CCOP1(=S)c2c(C)nn(CCC#N)c2N=C(c2ccccc2F)N1C (stereo not given) | inactive: 0.84% |
| CCOP(=O)(Nc1cccc2ccccc12)OCC | inactive: 0.49% |
| COc1cc(C2NCCC3(OCCO3)C2(C)C)cc(OC)c1OC (stereo not given) | inactive: 1.04% |
| CCCOP(=S)(Nc1nc(N)cc(=O)[nH]1)OCCC | inactive: 0.05% |
| Nc1cccc2c([As](=O)(O)O)cccc12 | inactive |
| Cc1ccc(NCCc2c([N+](=O)[O-])cc([N+](=O)[O-])cc2[N+](=O)[O-])cc1 | inactive: 4.21% |
| Cc1cccc(OCC(=O)OC2CN3CCC2CC3)c1 (stereo not given) | inactive: 1.37% |
| O=[As](O)(c1cccc(O)c1)c1cccc(O)c1 | inactive: 1.14% |
| CS(=O)(=O)c1ccc(Cl)c(NC(=O)COC(=O)C(O)(c2ccccc2)c2ccccc2)c1 | inactive: 1.44% |
| O=[As](O)(O)c1cccnc1 | inactive |
| COc1cc(C(=O)NCC2(N3CCOCC3)CCCCC2)cc(Cl)c1OC(C)C | inactive: 0.22% |
| O=C(OC1CN2CCC1CC2)c1ccc(Cl)cc1 (stereo not given) | inactive |
| COc1ccc(N/C(=N/P(=O)(N2CCOCC2)N2CCOCC2)N2CCOCC2)cc1 | inactive |
| O=[N+]([O-])c1cc(Oc2ccc([N+](=O)[O-])cc2C(F)(F)F)cc([N+](=O)[O-])c1 | inactive: 2.86% |
| COc1cc(I)ccc1[As](=O)(O)O | inactive: 1.13% |
| COc1ccc2nc(NP(=O)(c3ccccc3)c3ccccc3)sc2c1 | inactive: 5.48% |
| O=P1(N(CCCl)CCCl)OCCCN1CCCl (stereo not given) | inactive: 2.18% |
| O=P1(N(CCCl)CCCl)Nc2ccccc2N1 | inactive: 1.56% |
| Cc1cc(=O)[nH]c(N[N+](=O)[O-])n1 | inactive: 1.16% |

| Compound | inhibition |
| --- | --- |
| O=C(OC1CN2CCC1CC2)C12CC3CC(CC(C3)C1)C2 (stereo not given) | inactive |
| Cc1c2c(nc3ccccc13)SC(C(Cl)Cl)C2 (stereo not given) | inactive: 0.9% |
| O=[N+]([O-])c1cc([N+](=O)[O-])c(-c2ccn[nH]2)s1 | inactive: 1.83% |
| CC(C)NC(=O)NP(=O)(Oc1ccccc1)Oc1ccccc1 | inactive: 0.62% |
| O=C(OC1CN2CCC1CC2)c1cccc2[nH]cnc12 (stereo not given) | inactive: 0.92% |
| CCN(CC)C(=S)SC(NC=O)C(Cl)(Cl)Cl (stereo not given) | inactive: 9.53% |
| COC(=O)C1(C)COP(=O)(N2CCCCCC2)OC1 (stereo not given) | inactive: 0.58% |
| CC(C)c1ccc(OP(=O)(Nc2ccccn2)Oc2ccccc2F)cc1 (stereo not given) | inactive: 4.84% |
| ClCCSc1nnc(-c2cccnc2)o1 | inactive: 1.01% |
| Cc1ccc2nc3c(c(C)c2c1)CC(C(Cl)Cl)S3 (stereo not given) | inactive |
| Cc1ccc(OP(=O)(Nc2ccc([N+](=O)[O-])cn2)Oc2ccc(C)cc2)cc1 | inactive |
| O=[N+]([O-])c1ccc(-c2cc([N+](=O)[O-])c(O)c([N+](=O)[O-])c2)cc1 | inactive: 9.47% |
| COc1cc(C(=O)NCC2(N3CCOCC3)CCCCC2)ccc1OCC(C)C | inactive |
| C[As](=O)(O)c1cccc(C(=O)O)c1 | inactive: 0.85% |
| O=[As](O)(c1ccc(O)cc1)c1ccccc1O | inactive: 0.5% |
| O=[N+]([O-])c1ccc(Nc2ccc(Oc3ccc([N+](=O)[O-])cc3[N+](=O)[O-])cc2)c([N+](=O)[O-])c1 | inactive: 0.82% |
| O=P(Nc1ccccn1)(c1cccc2ccccc12)c1cccc2ccccc12 | inactive: 2.45% |
| Cc1cc(SC(NC=O)C(Cl)(Cl)Cl)ncn1 (stereo not given) | inactive: 0.45% |
| CCOC(=O)Nc1cccc([As](=O)(O)O)c1 | inactive |
| Cc1cc(SC(NC(=O)c2ccccc2)C(Cl)(Cl)Cl)nc(C(C)C)n1 (stereo not given) | inactive: 1.04% |
| CCCCOc1ccc(C(=O)NCC2(N3CCCCC3)CCCCC2)cc1OC | inactive: 0.15% |
| COP(=O)(OC)N1CC1c1ccccc1 (stereo not given) | inactive: 0.76% |
| CC1CCNP(=O)(N(CCCl)CCCl)O1 (stereo not given) | inactive: 0.1% |
| CCOC(=O)Nc1ccc([As](=O)(O)O)c(O)c1 | inactive |
| O=C(O)C(O)c1ccc(N(CCCl)CCCl)cc1 (stereo not given) | inactive: 0.32% |
| CCC(C)N(CC(C)C)C(=S)SC(NC(C)=O)C(Cl)(Cl)Cl (stereo not given) | inactive: 4.73% |
| CCOC(=O)c1ccc(NC(=O)C(C)(CCl)SC)cc1 (stereo not given) | inactive: 1.3% |

| Compound | inhibition |
| --- | --- |
| O=C(OC1CN2CCC1CC2)c1cccc([N+](=O)[O-])c1 (stereo not given) | inactive: 1.1% |
| O=C(Nc1ccncc1[N+](=O)[O-])c1ccc([N+](=O)[O-])cc1[N+](=O)[O-] | inactive: 3.1% |
| O=C(COc1ccccc1)OC1CN2CCC1CC2 (stereo not given) | inactive |
| O=C(O)C(=O)c1ccc(N(CCCl)CCCl)cc1 | inactive: 1.26% |
| COP1(=S)c2c(C)nn(CCC#N)c2N=C(c2ccc(F)cc2)N1C (stereo not given) | inactive: 0.57% |
| CN(C)C(=O)OCCc1n(C)cc[n+]1C | inactive: 3.22% |
| CC(C)c1nc(Nc2ccccc2)n(P(=O)(N(C)C)N(C)C)n1 | inactive |
| CC(C)=N/N=C(\N)N[N+](=O)[O-] | inactive |
| CC1CCN(C(=O)Oc2c(Cl)cc(Cl)c3cccnc23)CC1 | inactive: 0.06% |
| c1cc(-c2nn[nH]n2)ccc1-c1nn[nH]n1 | inactive: 0.58% |
| C[N+]1=C2C=CC=CC=C2SC12C([N+](=O)[O-])=CC([N+](=O)[O-])=C[C-]2[N+](=O)[O-] (stereo not given) | inactive |
| Nc1ccc([As](=O)(O)c2ccc(N)cc2)cc1 | inactive |
| CCN(/C(=N/P(=O)(N1CCOCC1)N1CCOCC1)N1CCOCC1)c1ccc(OC)cc1 | inactive: 0.65% |
| O=[N+]([O-])c1cccc2n[nH]nc12 | inactive |
| CC(=O)N1C2C3N(C(C)=O)C1C1N(C(C)=O)C(C(N1C(C)=O)N3C(C)=O)N2C(C)=O | inactive: 0.55% |
| CCc1nc2c(n1)c1c(non1O)c1c2no[n+]1[O-] | inactive: 1.33% |
| O=[N+]([O-])c1cc([N+](=O)[O-])c(CCNc2ccccc2)c([N+](=O)[O-])c1 | inactive: 2.69% |
| Cc1ccc(NP(=O)(Oc2ccccc2)Oc2ccccc2)nc1 | inactive: 1.31% |
| COc1ccc(C2=NCC(CBr)S2)cc1 (stereo not given) | inactive: 0.17% |
| COC(=O)C1(C)COP(=O)(Nc2ccccc2)OC1 (stereo not given) | inactive: 0.85% |
| O=[N+]([O-])c1cccc(NC2=NCC(CBr)S2)c1 (stereo not given) | inactive: 1.3% |
| O=C(O)CNc1ccc([As](=O)(O)O)cc1 | inactive: 0.61% |
| CC(C)(C)C(=O)NC(Sc1ccncn1)C(Cl)(Cl)Cl (stereo not given) | inactive: 0.54% |
| O=[N+]([O-])c1ncn(CCn2ncnc2[N+](=O)[O-])n1 | inactive: 1.73% |
